Data taken from publication PMC8765437, “GSK3640254 Is a Novel HIV-1 Maturation Inhibitor with an Optimized Virology Profile” (Antimicrobial Agents and Chemotherapy, 2022).
Read-outs that look alike come from different tables or passages of the source.

Legend:
[1] = system: NLRepRlucP373S-based viruses; assay type: cell-based, HIV-1
MT-2 cells = experiment: Cytotoxicity in MT-2 cells (MTS, 4-day incubation); settings: for all viruses shown in Table 1
HIV-1 Gag VLPs [2] = molecular target: T1, HIV-1 Gag VLPs (Human immunodeficiency virus type 1 group M subtype B, UniProt P04591, DEL370-370); assay type: binding; settings: ΔV370 VLP
T1 construct: made in house; host or cells: HEK 293T
Procedure: (§1) In a 96-well white low-binding plate (Corning; Corning, NY), 0.5 to 1.2 μg of WT or other polymorphic or mutant VLPs was mixed in 40 μl of PBS with SPA beads (100 μg/well, PVT-WGA SPA beads; PerkinElmer) for 1 h at room temperature, and then the volume was increased to 200 μl/well by the addition of binding buffer (100 mM Tris [pH 6.5], 2 mM EDTA, 0.03% Tween 20, and 5 mM MgCl2). Serial dilutions of ^3H-MIs were then added to wells. The final concentration of DMSO in the assay was 10% (vol/vol). After an approximately 4-h equilibration at room temperature, bound ^3H-MIs were measured using a Top Count or Microbeta2 plate reader (PerkinElmer). Kd values were calculated by fitting the data using GraphPad Prism v5.1.

HIV-1 Gag VLPs [3] = molecular target: T2, HIV-1 Gag VLPs (Human immunodeficiency virus type 1 group M subtype B, UniProt P04591, V362I/V370A); assay type: binding; settings: V362I/V370A VLP
T2 construct: made in house; host or cells: HEK 293T
Procedure: as §1

HIV-1 Gag VLPs [4] = molecular target: T3, HIV-1 Gag VLPs (Human immunodeficiency virus type 1 group M subtype B, UniProt P04591, V370A); assay type: binding; settings: V370A VLP
T3 construct: made in house; host or cells: HEK 293T
Procedure: as §1

HIV-1 Gag VLPs [5] = assay type: binding; settings: A364V VLP
Procedure: as §1

HIV-1 Gag VLPs [6] = molecular target: T4, HIV-1 Gag VLPs (Human immunodeficiency virus type 1 group M subtype B, UniProt P04591, V362I); assay type: binding; settings: V362I VLP
T4 construct: made in house; host or cells: HEK 293T
Procedure: as §1

HIV-1 Gag VLPs [7] = molecular target: T5, HIV-1 Gag VLPs (Human immunodeficiency virus type 1 group M subtype B, UniProt P04591, A364V); assay type: binding; settings: A364V VLP
T5 construct: made in house; host or cells: HEK 293T
Procedure: as §1

[8] = system: NLRepRlucP373S viruses containing Gag SDMs or gag/pr genes from clinical isolates; experiment: Multiple-cycle replication assay, NLRepRluc reporter viruses in MT-2 cells, luciferase endpoint; assay type: cell-based, HIV-1; settings: viruses with V362I
Description: Multiple-cycle assays using recombinant viruses or clinical isolates were used to assess MI antiviral activity as described previously ([10]). pNLRepRlucP373S (the P373S change is in the Gag gene and converts an outlier polymorphism in the NL4-3 gene to the prevalent amino acid in the population) plasmids containing SDMs in Gag or gag/pr regions from clinical isolates were transfected into HEK 293T cells, and the supernatant containing recombinant virus was harvested after 4 to 5 days. Virus was used to infect MT-2 cells in the presence of a 3-fold serially diluted compound at a final dimethyl sulfoxide (DMSO) concentration of 1%. The inocula of the reporter viruses were determined based on the luciferase activity detected on day 4 postinfection. […] Virus growth was determined on days 4 to 5 postinfection for reporter variants or days 5 to 11 for the other viruses. The reporter viruses were detected by a luciferase assay according to manufacturer protocols (Brite-Glo luciferase kit [Promega] for CEM-NKR-CCR5-Luc cells and Dual-Luciferase Reporter 1000 assay system [Promega] for the other cells), and luminescence was detected on a Wallac Trilux. The growth of clinical isolates in PBMCs was quantitated by reverse transcriptase activity in a 96-well scintillation proximity assay (SPA). […]

C=C(C)[C@@H]1CC[C@]2(NCCN3CCS(=O)(=O)CC3)CC[C@]3(C)[C@H](CC[C@@H]4[C@@]5(C)CC=C(C6=CC[C@@](CF)(C(=O)O)CC6)C(C)(C)[C@@H]5CC[C@]43C)[C@@H]12 [GSK’254]
Serum effect (±HS EC50 ratio) ([1]; V370A): 6.1
Serum effect (±HS EC50 ratio) ([1]; ΔV370): 8.7
therapeutic index (MT-2 cells): over 1,000
Relative GSK’254/GSK’795 affinity (HIV-1 Gag VLPs [2]): 9.0
Relative GSK’254/GSK’795 affinity (HIV-1 Gag VLPs [3]): 10.0
Relative GSK’254/GSK’795 affinity (HIV-1 Gag VLPs [4]): 9.3
fold reduced affinity versus WT (HIV-1 Gag VLPs [5]): 6.5 fold
Relative GSK’254/GSK’795 affinity (HIV-1 Gag VLPs [6]): 7.2
Relative GSK’254/GSK’795 affinity (HIV-1 Gag VLPs [7]): 1.8
fold more sensitive to GSK’254 than to GSK’795 [8]: approximately 4 fold
